Anti-infective test results gathered from many reports (values: NIAID ChemDB through PubChem).

Common to all: toxicity to cultured cells; cells: MT-4; measure: CC50

An empty or dashed field is not shown.

SMILES,read by,value
c1cc(CNCCCN2CCCC2)ccc1CCNCCCN1CCOCC1,MTT,>64.34 µM
Cc1ccnc2c1NC(=O)c1cccnc1N2C1CC1,MTT,>4 µM
O=C(CSc1sc(Cl)nc1-c1ccc(Br)cc1Br)Nc1ccc(Cl)cc1Cl,MTT,159 µM
Cc1nc(CCCCCCC(O)c2ccccc2)n2nc(Cl)ccc12,,250 µM
Cn1ncc2c1S(=O)(=O)N(CCc1ccc(Br)cc1)C(=O)N2CCc1ccc(Br)cc1,MTT,161.6 µM
Nc1ccccc1NC(=O)CSc1sc(Cl)nc1-c1ccc(Br)cc1Br,MTT,109 µM
C=CCn1c(C(=O)c2cccc3ccccc23)c(C(C)C)c(=O)[nH]c1=O,MTT,37 µM
Cc1nc(CCCCCCCC(=O)c2ccccc2)n2nc(Cl)ccc12,,250 µM
Nc1ncnc2c1ncn2[C@H]1CC[C@@H](CO)O1,,>100 µM
Cc1cn([C@H]2C[C@H](N=[N+]=[N-])[C@@H](COP(=O)(Nc3cc(C(=O)Nc4cc(C(=O)Nc5cc(C(=O)NCCC#N)n(C)c5)n(C)c4)n(C)c3)OC3CCCCC3)O2)c(=O)[nH]c1=O,MTT,73 µM
Cc1nc(CCCCCCC(=O)c2ccccc2)n2nc(-n3ccnc3C)ccc12,,260 µM
Cc1ccccc1NC(=O)CSc1sc(N)nc1-c1ccc(Br)cc1Br,MTT,23.96 µM
CCc1c(C(C)C2CCCCC2)nc(SCC(=O)c2ccc(OC)cc2)[nH]c1=O,MTT,30 µM
Cc1nc(CCCCCCC(=O)c2ccccc2)n2nc(N(C)C)ccc12,,27 µM
CCc1c(C(=O)c2cccc3ccccc23)n(COC)c(=O)[nH]c1=O,MTT,34.35 µM
c1cc(CNCCCN2CCOCC2)ccc1CCNCCCN1CCOCC1,MTT,>61.79 µM
Cc1cc([N+](=O)[O-])ccc1NC(=O)CSc1sc(Cl)nc1-c1ccc(Br)cc1Br,MTT,127.4 µM
C/C=C(\C)CC/C=C(\C)CC/C=C(\C)CC/C=C(\C)CC/C=C(\C)CC/C=C(\C)CC/C=C(\C)CC/C=C(\C)CC/C=C(\C)Cn1c(C(=O)c2cccc3ccccc23)c(C(C)C)c(=O)[nH]c1=O,MTT,72.01 µM
Cc1c(CCC2CCCCC2)nc(SCC(=O)c2ccccc2)[nH]c1=O,MTT,124 µM
Cn1ncc2c1S(=O)(=O)N(CCc1ccc(Cl)cc1Cl)C(=O)N2CCc1ccc(Cl)cc1Cl,MTT,>253 µM
Cc1cn([C@H]2C=C[C@@H](COP(=O)(Nc3cc(C(=O)Nc4cc(C(=O)NCCC(=N)N)n(C)c4)n(C)c3)OC(C)C)O2)c(=O)[nH]c1=O,MTT,179 µM
O=C(CSc1sc(Cl)nc1-c1ccc(Br)cc1Br)Nc1ccccc1Br,MTT,12.5 µM
COc1ccc(C(=O)CSc2nc(CCC3CCCCC3)cc(=O)[nH]2)cc1,MTT,156 µM
CC(C)c1c(C(=O)c2cccc3ccccc23)n(C/C=C/c2ccccc2)c(=O)[nH]c1=O,MTT,21.23 µM
Cn1ncc2c1S(=O)(=O)N(CCc1ccccc1)C(=O)N2CCc1ccccc1Cl,MTT,>300.1 µM
Nc1ccn([C@H]2CC[C@@H](CO)O2)c(=O)n1,MTT,>94 µM
CN1CCN(CCCNCc2ccc(CNCCCN3CCN(C)CC3)cc2)CC1,MTT,>300 µM
CC(CC1CCCCC1)c1cc(=O)[nH]c(SCC(=O)c2ccc(F)cc2)n1,MTT,108 µM
Cc1cn([C@H]2C=C[C@@H](COP(=O)(Nc3cc(C(=O)NCCC(=N)N)n(C)c3)OC(C)C)O2)c(=O)[nH]c1=O,MTT,223 µM
Cc1cn([C@H]2C[C@H](N=[N+]=[N-])[C@@H](CO)O2)c(=O)[nH]c1=O,MTT,>88.26 µM
Cn1ncc2c1S(=O)(=O)N(CCc1ccccc1)C(=O)N2CCc1ccccc1,MTT,≥319.4 µM
CC1CCCCN1CCCNCc1ccc(CC(=O)NCCCN2CCOCC2)cc1,MTT,>58.05 µM
Cc1cn([C@H]2C=C[C@@H](CO)O2)c(=O)[nH]c1=O,MTT,74 µM
CC1(C)C2CC[C@]3(C)C(C(=O)C=C4C5C[C@@](C)(C(=O)Nc6c[nH]c(=O)[nH]c6=O)CC[C@]5(C)CC[C@]43C)[C@@]2(C)CC[C@@H]1O[C@H]1O[C@H](C(=O)Nc2c[nH]c(=O)[nH]c2=O)[C@@H](O)[C@H](O)[C@H]1O[C@@H]1O[C@H](C(=O)Nc2c[nH]c(=O)[nH]c2=O)[C@@H](O)[C@H](O)[C@H]1O,trypan blue,2080 µg/mL
CN1CCN(CCCNC(=O)Cc2ccc(CC(=O)NCCCN3CCN(C)CC3)cc2)CC1,MTT,>264 µM
O=c1[nH]cnc2c1ncn2[C@H]1CC[C@@H](CO)O1,MTT,≥529 µM
c1cc(CNCCN2CCCC2)ccc1CNCCN1CCCC1,MTT,>75.6 µM
CC(C)c1c(C(=O)c2cccc3ccccc23)n(Cc2ccccc2)c(=O)[nH]c1=O,MTT,33.54 µM
Cc1nc(CCCCCCC(=O)c2ccccc2)n2nc(Cl)ccc12,,25 µM
C=CCn1c(C(=O)c2cccc3ccccc23)c(CC)c(=O)[nH]c1=O,MTT,39.22 µM
Cc1nc(CCCCCCC(O)c2ccccc2)n2nc(-n3ccnc3)ccc12,,26 µM

Again, the opening 2 rows:

SMILES,read by,value
c1cc(CNCCCN2CCCC2)ccc1CCNCCCN1CCOCC1,MTT,>64.34 µM
Cc1ccnc2c1NC(=O)c1cccnc1N2C1CC1,MTT,>4 µM

Conditions beyond the fields shown may differ between rows. CCn is the concentration with n% toxicity to the cells.